Experiments:
[1] = biological target: H1 stem v1 (based on H1N1pdm A/California/07/2009 HA) (Influenza A virus H1N1pdm A/California/07/2009); experiment: SEC
[2] = biological target: CR9114; experiment: ELISA; conditions: purified trimeric H1 stem protein from ExpiCHO cell cultures; n = 3; parent: est. 0.39; read off a plot
[3] = biological target: CT149; experiment: ELISA; conditions: purified trimeric H1 stem protein from ExpiCHO cell cultures; n = 3; parent: est. 0.42; read off a plot
[4] = biological target: SD38; experiment: ELISA; conditions: purified trimeric H1 stem protein from ExpiCHO cell cultures; n = 3; parent: est. 0.60; read off a plot

H1 stem v1 (based on H1N1pdm A/California/07/2009 HA)
stoichiometry N [1]: 3

H1 stem v1 (based on H1N1pdm A/California/07/2009 HA) E434Q; Y392P
EC50 [2]: 0.41 nM | EC50 [3]: 0.44 nM | EC50 [4]: 0.63 nM

H1 stem v1 (based on H1N1pdm A/California/07/2009 HA) E434Q; Y392R
EC50 [2]: 0.38 nM | EC50 [3]: 0.4 nM | EC50 [4]: 0.6 nM
